Pooled drug test results. Numbers come from NIAID ChemDB, via PubChem.

Shared fields: growth or infection tests; species: HIV-1; cells: CEM + CEM-SS; read-out: fold resistance

An empty or dashed field is not shown. Fold resistance: result on the changed form divided by that on wild type. Neighbouring rows are from separate reports.

compound	strain	mutations	method	conditions	result
CCc1c(C(=O)c2cc(C)cc(C)c2)n(CC2CC=CC2)c(=O)[nH]c1=O	CALO(RT-T139I)	RT-T139I	cytopathic effect / XTT	-	5
CC1=C(C(=O)Nc2ccc(Cl)c(C(=O)OC(C)C)c2)SCCO1	IIIB HEPT-resistant (IV)	RT-P236L	cytopathic effect / XTT	-	0.3
CC1=CC(=O)C(C)(C2=NC(C)(C)CO2)c2ccccc21	RF	RT-Y181C	cytopathic effect / XTT	-	>37
CCc1c(Sc2ccccn2)n(COCc2ccccc2)c(=O)[nH]c1=O	IIIB(OC-R(I))	RT-L100I	cytopathic effect / XTT	-	15
Nc1ccn([C@H]2CC[C@@H](CO)O2)c(=O)n1	N119 nevirapine-resistant (RT Y181C)	RT-Y181C	RT activity	-	3.03
O=[N+]([O-])c1ccccc1S(=O)(=O)c1ccccc1	IIIB(TIBO-R(I))	RT-A98G V108I	cytopathic effect / XTT	-	>60
C/C=C/CSc1cc(NC(=S)c2ccsc2C)ccc1Cl	TIBO R82150-resistant (RT A98G V108I)	RT-A98G V108I	cytopathic effect / XTT	-	6
Cc1cn([C@H]2C[C@H](N=[N+]=[N-])[C@@H](CO)O2)c(=O)[nH]c1=O	NL4-3	RT-L100I	cytopathic effect / XTT	-	1
CCCc1cc(=O)oc2c3c(c4c(c12)OC(C)(C)C=C4)O[C@H](C)[C@@H](C)[C@@H]3O	UC38-R(RT-Y181C	RT-Y181C	cytopathic effect / XTT	-	0.1
Cc1cn([C@H]2C[C@H](N=[N+]=[N-])[C@@H](CO)O2)c(=O)[nH]c1=O	Clinical isolate G910-6 post-AZT	RT mutant at codon 215	plaque count	-	660
Fc1cccc(F)c1C1SCc2nc3ccccc3n21	UC38-R(RT-Y181C	RT-Y181C	cytopathic effect / XTT	-	8
CCc1c(Sc2ccccn2)n(COCc2ccccc2)c(=O)[nH]c1=O	NL4-3	RT-A98G	cytopathic effect / XTT	-	1.11
CC(C)=CCN1Cc2cccc3[nH]c(=S)n(c23)C[C@@H]1C	IIIB(THZ-R(I))	RT-V108I	cytopathic effect / XTT	-	51
Cc1ccnc2c1NC(=O)c1cccnc1N2C1CC1	UC38-R(RT-Y181C	RT-Y181C	cytopathic effect / XTT	-	460
COC(=O)N[C@H](C(=O)N[C@@H](Cc1ccccc1)[C@@H](O)CN(Cc1ccc(-c2ccccn2)cc1)NC(=O)[C@@H](NC(=O)OC)C(C)(C)C)C(C)(C)C	Indinavir-resistant (PR-L10R M46I L63P V82T I84V)	PR-L10R M46I L63P V82T I84V	RT activity	10 d	3
CCc1c(Sc2ccccn2)n(COCc2ccccc2)c(=O)[nH]c1=O	Dihydrocostatolide-resistant (RT-L100I)	RT-L100I	XTT	-	2
Cc1ccnc2c1NC(=O)c1cccnc1N2C1CC1	Diphenyl sulfone-resistant (RT-Y181C)	RT-Y181C	cytopathic effect / XTT	-	590
Cc1cn([C@H]2C[C@H](N=[N+]=[N-])[C@@H](CO)O2)c(=O)[nH]c1=O	IIIB	RT-Y181C	cytopathic effect / XTT	-	0.6
Cc1ccnc2c1NC(=O)c1cccnc1N2C1CC1	NL4-3	RT-V106I	XTT	-	>100
Cc1occc1C(=S)Nc1ccc(Cl)c(/C=N/OC(C)(C)C)c1	NL4-3 (RT V108I)	RT-V108I	cytopathic effect / XTT	-	2.5
CCCCCCCCCCCCSCC(COP(=O)([O-])OCC[N+](C)(C)C)OCCCCCCCCO	Clinical isolate G910-6 post-AZT	RT mutant at codon 215	plaque count	-	6
O=S(=O)(c1ccccc1)c1ccccc1	UC38-R(RT-Y181C	RT-Y181C	cytopathic effect / XTT	-	8
Cc1ccnc2c1NC(=O)c1cccnc1N2C1CC1	NL4-3	RT-L74V	cytopathic effect / XTT	-	1

Repeating the final 3 entries:

{"compound": "CCCCCCCCCCCCSCC(COP(=O)([O-])OCC[N+](C)(C)C)OCCCCCCCCO", "strain": "Clinical isolate G910-6 post-AZT", "mutations": "RT mutant at codon 215", "method": "plaque count", "result": "6"}
{"compound": "O=S(=O)(c1ccccc1)c1ccccc1", "strain": "UC38-R(RT-Y181C", "mutations": "RT-Y181C", "method": "cytopathic effect / XTT", "result": "8"}
{"compound": "Cc1ccnc2c1NC(=O)c1cccnc1N2C1CC1", "strain": "NL4-3", "mutations": "RT-L74V", "method": "cytopathic effect / XTT", "result": "1"}